Anti-infective test results gathered from many reports (values: NIAID ChemDB through PubChem).

Common to all: whole-cell or culture tests; species: Herpes simplex virus 1; cell line: MRC-5; read-out: EC50

ECn is the concentration giving n% inhibition of infection, replication or growth.

smiles | strain | read by | value
Nc1ncnc2c1ncn2OCC(CO)OCP(=O)(O)O | SC16 | cytopathic effect | >310 µg/mL
CCCCCCCCCCc1nccnc1OCCCCO | - | cytopathic effect | >10 µM
Nc1nc2c(ncn2CCC(CO)CO)c(=O)[nH]1 | Tomioka | plaque count | 0.54 µg/mL
Nc1nc(=S)n([C@H]2C[C@H](O)[C@@H](CO)O2)cc1Cl | TK- | plaque count | >362 µM
Nc1ccn(C[C@@H](CO)OCP(=O)(O)O)c(=O)n1 | SC16-TKDM21 (TK-) | plaque count | 0.6 µM
CCCCCCCC/C=C\CCCCCCCCOCCOP(=O)(O)CCCOCn1cnc2c(=O)[nH]c(N)nc21 | - | - | 0.22 µM
Nc1nc2c(ncn2C[C@]2(CO)C[C@H]2CO)c(=O)[nH]1 | Tomioka | plaque count | 0.77 µg/mL
O=c1[nH]cnc2c1ncn2OCCOCP(=O)(O)O | SC16 | cytopathic effect | >340 µM
Nc1nc(N)c2ncn(COCCCP(=O)(O)O)c2n1 | - | - | >100 µM
Nc1nc2c(ncn2CCC(CO)CO)c(=O)[nH]1 | - | plaque count | 8.7 µM
Nc1nc2c(ncn2CCC(CO)CO)c(=O)[nH]1 | SC16 | antigen | 0.6 µg/mL
CCCCCCCCCCc1nccn(CCCCO)c1=O | - | cytopathic effect | >10 µM
O=c1[nH]c(=S)n([C@H]2C[C@H](O)[C@@H](CO)O2)cc1Br | TK- | plaque count | >311 µM
CCCCCCCCCCCCCCCCOCCCOP(=O)(O)OCC(CO)OCn1cnc2c(=O)[nH]c(N)nc21 | - | - | 0.023 µM
Nc1nc2c(ncn2COC2COP(=O)(O)OC2)c(=O)[nH]1 | PFA | plaque count | 18 µM
CCCCCCCCCCCCCCCCOCCCOP(=O)(O)CCCOCn1cnc2c(=O)[nH]c(N)nc21 | - | - | 1.8 µM
Cc1cn([C@H]2C[C@H](O)[C@@H](CO)O2)c(=S)[nH]c1=O | KOS | plaque count | 6.2 µM
CCCCCCCC/C=C\CCCCCCCOCCOP(=O)(O)CO[C@H](CO)Cn1cnc2c(N)ncnc21 | - | hybridisation | <0.0009 µM
Nc1ccn([C@@H]2O[C@H](CO)[C@@H](O)[C@H]2O)c(=S)n1 | KOS | plaque count | >386 µM
Nc1nc2c(ncn2CCC(CO)CO)c(=O)[nH]1 | HFEM | plaque count | 0.5 µg/mL
CCCCCCCCCCCCCCCCCCOCCCOP1(=O)CO[C@@H](Cn2ccc(N)nc2=O)CO1 | - | plaque count | 0.5 µM
Nc1nc2c(ncn2CCC(CO)CO)c(=O)[nH]1 | Clinical isolate | hybridisation | 0.3 µg/mL
Nc1nc(=S)n([C@@H]2O[C@H](CO)[C@@H](O)[C@@H]2O)cc1F | KOS | plaque count | >361 µM
CCCCCCCCCCCCCCCCCCOCCOP1(=O)CO[C@@H](Cn2ccc(N)nc2=O)CO1 | - | - | 0.005 µM
CCCCCCCCCCCCCCCCOCCCOP(=O)(O)CCCOCn1cnc2c(N)nc(N)nc21 | - | - | 40.3 µM
CCCCCCCCCCCCCCCCOCCCOP(=O)(O)CO[C@H](CO)Cn1ccc(N)nc1=O | - | plaque count | 0.08 µM
Nc1ncnc2c1ncn2OCCOCP(=O)(O)O | SC16 | cytopathic effect | >350 µg/mL

For reference, 2 entries again:

smiles,strain,read by,value
Cc1cn([C@H]2C[C@H](O)[C@@H](CO)O2)c(=S)[nH]c1=O,KOS,plaque count,6.2 µM
CCCCCCCCCCCCCCCCOCCCOP(=O)(O)CO[C@H](CO)Cn1ccc(N)nc1=O,-,plaque count,0.08 µM

Blank or dashed fields: not listed here. Rows are shuffled and stem from different studies.